Compound potency records, mixed from different reports. Data source: NIAID ChemDB in PubChem.

Blank or dashed fields: not listed here. Neighbouring rows are from separate reports. Percent inhibition refers to the dose given; in toxicity tests it is the harm to the cells. MIC bound comes from a single tested concentration. ICn: concentration for n% inhibition.

{"SMILES": "C/C(=C\\C(=O)O)C(=O)O", "organism": "Mycobacterium tuberculosis", "strain or isolate": "H37Rv", "measure": "MIC", "kind": "culture", "read by": "BACTEC", "result": "≥128 µg/mL"}
{"SMILES": "Cc1cccc(C(=O)N2CCN(c3cncc(-c4ccc5ccccc5c4)n3)CC2C)c1", "organism": "Cytomegalovirus", "measure": "IC50", "target": "UL97 kinase", "kind": "target", "result": "<100 µM"}
{"SMILES": "Fc1ccc(N2CCCCC2)c(NC(=S)c2ccncc2)c1", "tested at": "10 µM", "measure": "inhibition", "target": "TTK", "kind": "host protein", "read by": "kinase activity", "result": "-16.1%"}
{"SMILES": "Nc1ccc2cccc(O)c2c1", "organism": "Mycobacterium tuberculosis", "strain or isolate": "H37Rv", "measure": "MIC", "kind": "culture", "result": "50 µg/mL"}
{"SMILES": "O=C(c1ccccc1)N1C(=O)N(c2ccccc2)C(=Nc2ccccc2)C1=Nc1ccccc1", "organism": "Mycobacterium tuberculosis", "strain or isolate": "H37Rv", "measure": "MIC bound", "kind": "culture", "read by": "BACTEC", "result": ">12.5 µg/mL"}
{"SMILES": "Nc1cc(=O)[nH]c(N)n1", "organism": "Mycobacterium tuberculosis", "strain or isolate": "H37Rv", "measure": "MIC", "kind": "culture", "result": ">100 µg/mL"}
{"SMILES": "OCC1CCCN1c1nccnc1-c1cc2ccccc2o1", "organism": "Cytomegalovirus", "measure": "IC50", "target": "UL97 kinase", "kind": "target", "result": "<10 µM"}
{"SMILES": "COC(=O)c1cc(N)cc(C(=O)OC)c1", "organism": "Mycobacterium tuberculosis", "strain or isolate": "H37Rv", "measure": "MIC", "kind": "culture", "result": ">100 µg/mL"}
{"SMILES": "c1ccc(C2CN(c3ccccc3)CCN2c2cnccn2)cc1", "organism": "Cytomegalovirus", "measure": "IC50", "target": "UL97 kinase", "kind": "target", "result": "<10 µM"}
{"SMILES": "O=C1N[C@@H]2C(=C[C@H](O)[C@@H](O)[C@H]2O)c2cc3c(c(O)c21)OCO3", "tested at": "12.5 µg/mL", "organism": "Mycobacterium tuberculosis", "strain or isolate": "H37Rv", "measure": "inhibition", "kind": "culture", "read by": "BACTEC", "result": "4%"}
{"SMILES": "NNc1ccc([As]=O)cc1", "organism": "Mycobacterium tuberculosis", "strain or isolate": "H37Rv", "measure": "MIC", "kind": "culture", "result": ">100 µg/mL"}
{"SMILES": "Nc1c(/C=C/c2cc3cc(C4=NCCN4)ccc3o2)[nH]c2cc(C3=NCCN3)ccc12", "organism": "Mycobacterium tuberculosis", "strain or isolate": "H37Rv", "measure": "MIC bound", "kind": "culture", "read by": "BACTEC", "result": ">12.5 µg/mL"}
{"SMILES": "CC(=O)c1ccc(N2CCN(c3cncc(-c4ccc(F)c(Cl)c4)n3)CC2)cc1", "organism": "Cytomegalovirus", "measure": "IC50", "target": "UL97 kinase", "kind": "target", "result": "<100 µM"}
{"SMILES": "CCc1ccccn1", "organism": "Mycobacterium tuberculosis", "strain or isolate": "H37Rv", "measure": "MIC", "kind": "culture", "result": ">100 µg/mL"}
{"SMILES": "COc1ccccc1N1CCN(c2cncc(-c3ccc(F)cc3)n2)CC1", "organism": "Cytomegalovirus", "measure": "IC50", "target": "UL97 kinase", "kind": "target", "result": "<10 µM"}
{"SMILES": "CO[C@H]1C=CC2=CCN3CCC4=C(CC(=O)OC4)[C@]23C1.Cl", "organism": "Mycobacterium tuberculosis", "strain or isolate": "H37Rv", "measure": "MIC", "kind": "culture", "read by": "BACTEC", "result": "≥128 µg/mL"}
{"SMILES": "O=[N+]([O-])c1ccc2cn[nH]c2c1", "organism": "Mycobacterium tuberculosis", "strain or isolate": "H37Rv", "measure": "MIC", "kind": "culture", "result": ">100 µg/mL"}
{"SMILES": "N=c1nc(N)nc2c3ccccc3nnn12", "organism": "Mycobacterium tuberculosis", "strain or isolate": "H37Rv", "measure": "MIC bound", "kind": "culture", "read by": "BACTEC", "result": ">12.5 µg/mL"}
{"SMILES": "COc1cc(NCCOCCO)c2ncccc2c1.Cl", "organism": "Mycobacterium tuberculosis", "strain or isolate": "H37Rv", "measure": "MIC", "kind": "culture", "result": ">100 µg/mL"}
{"SMILES": "O=C(Cn1nnc(N2CCCCC2)n1)N/N=C/c1ccccc1O", "tested at": "12.5 µg/mL", "organism": "Mycobacterium tuberculosis", "strain or isolate": "H37Rv", "measure": "inhibition", "kind": "culture", "read by": "BACTEC", "result": "-5%"}
{"SMILES": "CSc1ccc(-c2cncc(N3CCN(c4ccc(Cl)c(Cl)c4)CC3)n2)cc1", "tested at": "10 µM", "organism": "Cytomegalovirus", "measure": "inhibition", "target": "UL97 kinase", "kind": "target", "result": ">15%"}

Repeating the final 2 entries:

SMILES	tested at	organism	strain or isolate	measure	target	kind	read by	result
O=C(Cn1nnc(N2CCCCC2)n1)N/N=C/c1ccccc1O	12.5 µg/mL	Mycobacterium tuberculosis	H37Rv	inhibition		culture	BACTEC	-5%
CSc1ccc(-c2cncc(N3CCN(c4ccc(Cl)c(Cl)c4)CC3)n2)cc1	10 µM	Cytomegalovirus		inhibition	UL97 kinase	target		>15%